Results taken from paper PMC10100716.

Biological target: T1, Cra-His6 (FruR) (Salmonella enterica serovar Typhimurium) (UniProt P0A2P8)
T1 sequence (looked up): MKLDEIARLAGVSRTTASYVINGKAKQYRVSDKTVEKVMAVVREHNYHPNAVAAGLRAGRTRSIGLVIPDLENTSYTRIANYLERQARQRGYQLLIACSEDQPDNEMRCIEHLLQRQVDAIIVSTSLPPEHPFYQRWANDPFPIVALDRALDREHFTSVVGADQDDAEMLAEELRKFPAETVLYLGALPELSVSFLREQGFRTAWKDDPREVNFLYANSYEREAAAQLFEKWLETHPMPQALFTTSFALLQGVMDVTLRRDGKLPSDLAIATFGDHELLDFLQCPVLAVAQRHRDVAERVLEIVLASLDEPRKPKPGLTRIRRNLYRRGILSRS
Experiment: EMSA
Conditions: 10 mM Tris-HCl pH 8.0, 5% glycerol, 0.1 mM EDTA, 1 mM DTT, 37 C 20 min, 40 ng DNA, 6% native PAGE, ethidium bromide stain, recombinant protein, residues 1-334, protein details: C-terminal His6, probe letters rebuilt from the primers and the genome

[1] = fructose-1,6-bisphosphate (up to 50 mM)

Row | Sequence | binding result (250 uM c-di-GMP (tended to facilitate binding)) | binding result [1] | binding result (no FBP, Cra 0-16 uM)
1 | AGACAACTGGTTTTTGGCAAAGATTTACCTTCCTTTGCAAAGAGATGTAACCAGGATATTTTACACTTCGAAATTTCTCATTATCGAAAACAAAATTACGGATCTCCATCACACAAAATATTTTTTTCGATATCTAAAATAATTCACGAAAATCATGCGTTTTTCGTTGTAACCCTCATCTGAATCGATTCGCTTGCGGACGGCGATTCAAAAAATACATCTGTCAAGTTGATGTGTTGACAATAATAAAGGAGGTAGCAAGTGACCATTGCTATTGTTATAGGCACACATGGTTGGGCTGCAGAGCAGTTACTTAAAACAGCCGAAATGC (double strand) [PmanX] | binds | binds more weakly | binds
2 | AGCATCAGCGATTTACCGACCTTTTGCAGGTTAGCAAATGCATTCTTAAACATAATTGAGAGTGCTCCTGAGTATTTGTGCTTTTCTACGTTCTCACGCATTGGCGAGGGGGGAGAACCCCGCCGTGGACAGGACATCTAAGTGCCCTTTTATTTATTACACAGAGTAAAATAAATACGTCTGATTTTGTTTGACGGCTATCACGTTTCAGCGCCAGATAGCCTAAAAAGTATCACATTCTGCCAAAATGAGTTTCCGAATGTTTCCATAAGCTCGCTCACCGCCCCTTTTGTGGCGGTGAACTTTACGCGTTTTGTTTATTAATTACGAGCTTTAAAAAAACTCGTTTAACGGATTGATGACAGGCGAGACGCGTCAATATGGAACA (double strand) [PptsG] |  | binds more weakly | binds

Where a protein sequence is shown, tags need not be part of it. Construct, isoform or probe ends are uncertain for at least one entry. A weaker result is weaker than the reference pair of the same experiment.
